Measurements reported in PubChem BioAssay AID624099 (ICCB-Longwood, 2012).
Test: 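Host factors E2 relies on to silence an HPV18 LCR reporter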 (primary screen). Cell system: human C33A cervical carcinoma cells (HPV-negative) stably expressing BPV1 E2 and an HPV18 LCR luciferase reporter. Reagent: siRNA pool against human genes, 40 nM. Timing: 72 h. Measurement: 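Per-well luciferase luminescence, z-scored on each plate against the plate mean and SD with control wells left out, then averaged across three replicate plates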. Reading the numbers: mean z-score and z-score: higher = stronger reporter signal, weaker E2 silencing. Rule for the call: 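Hit if mean z-score reaches 2 and two or more of three replicate z-scores also reach 2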.
Here is one part, drawn at random, of about 21,000 reagents tested. Of all reagents, 497 (2.4%) are marked active. 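Higher z means weaker E2 silencing; only reporter increases were scored, and knock-downs that hurt cell survival may mask genuine repressor factors.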 A number with no mark means an inactive call.

The first 2 records as a preview:
| gene symbol | mean z-score | z-score, replicate A | z-score, replicate B | z-score, replicate C |
| --- | --- | --- | --- | --- |
| SPATS2L | -1.19 | -1.1 | -1.29 | -1.17 |
| MLF1 | -0.71 | -0.69 | -0.79 | -0.65 |

Results, repeating the preview:
| gene symbol | mean z-score | z-score, replicate A | z-score, replicate B | z-score, replicate C |
| --- | --- | --- | --- | --- |
| SPATS2L | -1.19 | -1.1 | -1.29 | -1.17 |
| MLF1 | -0.71 | -0.69 | -0.79 | -0.65 |
| PTGR1 | -1.37 | -1.38 | -1.5 | -1.22 |
| NOX3 | 3.84 (active) | 4.32 | 3.2 | 4 |
| QRICH1 | 0.82 | 0.61 | 0.76 | 1.08 |
| RNF185 | -1.59 | -1.43 | -1.79 | -1.55 |
| LOC389172 (retired record) | -1.29 | -1.29 | -1.27 | -1.3 |
| MTERF4 | -1.03 | -0.9 | -1.04 | -1.15 |
| KBTBD13 | 1.26 | 1.44 | 1.23 | 1.1 |
| TBC1D10B | -1.29 | -1.59 | -1.01 | -1.26 |
| ATP1B3 | -0.85 | -0.59 | -0.8 | -1.15 |
| EDN2 | 0.53 | 0.79 | 0.46 | 0.33 |
| ANXA2R | -0.6 | -0.41 | -0.6 | -0.81 |
| SCYL2 | 1.91 | 1.99 | 1.97 | 1.77 |
| MRPS27 | 0.94 | 1.67 | 0.46 | 0.68 |
| TAF11L1 | -0.56 | -0.74 | -0.39 | -0.55 |
| ADAMTS14 | -0.19 | -0.11 | -0.12 | -0.35 |
| ERH | -0.91 | -0.99 | -0.8 | -0.93 |
| MMAA | 0.5 | 0.65 | 0.5 | 0.35 |
| LINC01344 | -0.21 | -0.36 | 0.09 | -0.35 |
| LINC01115 | -0.01 | -0.25 | 0.15 | 0.07 |
| LOC401485 (retired record) | 0.62 | 0.59 | 0.78 | 0.49 |
| TOMM20L | 1.01 | 0.61 | 1.32 | 1.11 |
